Like-named read-outs stand apart in the source and are kept apart here.
What was measured:
[1] = molecular target: HA of H3N2 A/Brisbane/10/2007 (influenza A virus); experiment: AlphaLISA competition vs CR8057
[2] = molecular target: HA of H3N2 A/Wisconsin/67/2005 (influenza A virus); experiment: AlphaLISA competition vs CR8057
[3] = molecular target: HA of H1N1 A/New Caledonia/20/1999 (influenza A virus); experiment: AlphaLISA competition vs CR9114
[4] = molecular target: HA of H5N1 A/Vietnam/1203/2004 (influenza A virus); experiment: AlphaLISA competition vs CR9114
[5] = molecular target: HA of H3N2 A/Brisbane/10/2007 (influenza A virus); experiment: AlphaLISA competition vs CR9114
[6] = molecular target: HA of H3N2 A/Wisconsin/67/2005 (influenza A virus); experiment: AlphaLISA competition vs CR9114
[7] = molecular target: HA of H1N1 A/California/07/2009 (influenza A virus); experiment: AlphaLISA competition vs CR9114
[8] = molecular target: HA of H3N2 A/Brisbane/10/2007 (influenza A virus); experiment: AlphaLISA competition vs CR8020
[9] = molecular target: HA of H3N2 A/Wisconsin/67/2005 (influenza A virus); experiment: AlphaLISA competition vs CR8020
[10] = molecular target: HA of H1N1 A/New Caledonia/20/1999 (influenza A virus); experiment: BLI steady state
[11] = molecular target: HA of H1N1 A/New Caledonia/20/1999 (influenza A virus); experiment: cell-based or functional assay
[12] = molecular target: HA of B/Brisbane/60/2008 (Victoria) (influenza B virus); experiment: cell-based or functional assay
[13] = molecular target: HA of B/Florida/04/2006 (Yamagata) (influenza B virus); experiment: cell-based or functional assay
[14] = molecular target: HA of H3N2 A/Brisbane/10/2007 (influenza A virus); experiment: cell-based or functional assay
[15] = molecular target: HA of H3N2 A/Wisconsin/67/2005 (influenza A virus); experiment: cell-based or functional assay
[16] = molecular target: HA of H5N1 A/PR8 H5N1 HK97 (influenza A virus); experiment: cell-based or functional assay
[17] = molecular target: HA of H5N1 A/Vietnam/1194/04 (influenza A virus); experiment: cell-based or functional assay
[18] = molecular target: HA of H1N1 A/California/07/2009 (influenza A virus); experiment: cell-based or functional assay
[19] = molecular target: T1, HA of H7N3 A/NIBRG/60 (A/mallard/NL/12/00) (influenza A virus); experiment: cell-based or functional assay
[20] = molecular target: HA of H1N1 A/Puerto Rico/8/34-MA (influenza A virus); experiment: cell-based or functional assay
[21] = molecular target: HA of B/Brisbane/60/2008 (Victoria) (influenza B virus); experiment: AlphaLISA competition vs CR9114
[22] = molecular target: HA of H1N1 A/New Caledonia/20/1999 (influenza A virus); experiment: cell-based or functional assay; remark: listed apart in the source
[23] = molecular target: HA of H3N2 A/Brisbane/10/2007 (influenza A virus); experiment: cell-based or functional assay; remark: listed apart in the source
[24] = molecular target: HA of H1N1 A/Brisbane/59/07 (influenza A virus); experiment: cell-based or functional assay
[25] = molecular target: HA of H3N2 A/Wisconsin/67/2005 (influenza A virus); experiment: cell-based or functional assay; remark: listed apart in the source
[26] = molecular target: HA of H5N1 A/Vietnam/1194/04 (influenza A virus); experiment: cell-based or functional assay; remark: listed apart in the source
[27] = molecular target: T1, HA of H7N3 A/NIBRG/60 …; experiment: cell-based or functional assay; remark: listed apart in the source
[28] = molecular target: HA of H1N1 A/California/07/2009 (influenza A virus); experiment: cell-based or functional assay; remark: listed apart in the source
[29] = molecular target: HA of H3N2 A/Brisbane/10/2007 (influenza A virus); experiment: AlphaLISA competition vs SD1038
[30] = molecular target: HA of H7N9 A/Hangzhou/1/2013 (influenza A virus); experiment: BLI steady state
[31] = molecular target: HA of H3N2 A/Brisbane/10/2007 (influenza A virus); experiment: BLI steady state
[32] = molecular target: HA of H1N1 A/Brisbane/59/07 (influenza A virus); experiment: BLI steady state
[33] = molecular target: HA of H3N2 A/Wisconsin/67/2005 (influenza A virus); experiment: BLI steady state
[34] = molecular target: T1, HA of H7N3 A/NIBRG/60 …; experiment: BLI steady state
[35] = molecular target: HA of H1N1 A/New Caledonia/20/1999 (influenza A virus); experiment: cell-based or functional assay; remark: listed apart in the source
[36] = molecular target: HA of B/Brisbane/60/2008 (Victoria) (influenza B virus); experiment: cell-based or functional assay; remark: listed apart in the source
[37] = molecular target: HA of H3N2 A/Brisbane/10/2007 (influenza A virus); experiment: cell-based or functional assay; remark: listed apart in the source
[38] = molecular target: HA of H1N1 A/Brisbane/59/07 (influenza A virus); experiment: cell-based or functional assay; remark: listed apart in the source
[39] = molecular target: HA of H5N1 A/PR8 H5N1 HK97 (influenza A virus); experiment: cell-based or functional assay; remark: listed apart in the source
[40] = molecular target: HA of H5N1 A/Vietnam/1194/04 (influenza A virus); experiment: cell-based or functional assay; remark: listed apart in the source
[41] = molecular target: T1, HA of H7N3 A/NIBRG/60 …; experiment: cell-based or functional assay; remark: listed apart in the source
[42] = molecular target: HA of H1N1 A/Puerto Rico/8/34-MA (influenza A virus); experiment: cell-based or functional assay; remark: listed apart in the source
[43] = molecular target: HA of H3N2 A/Brisbane/10/2007 (influenza A virus); experiment: AlphaLISA competition vs SD1036
[44] = molecular target: HA of B/Florida/04/2006 (Yamagata) (influenza B virus); experiment: AlphaLISA competition vs CR8033
[45] = molecular target: HA of B/Florida/04/2006 (Yamagata) (influenza B virus); experiment: AlphaLISA competition vs CR9114
[46] = molecular target: HA of B/Brisbane/60/2008 (Victoria) (influenza B virus); experiment: cell-based or functional assay; remark: listed apart in the source
[47] = molecular target: HA of B/Florida/04/2006 (Yamagata) (influenza B virus); experiment: cell-based or functional assay; remark: listed apart in the source
[48] = molecular target: HA of B/Brisbane/60/2008 (Victoria) (influenza B virus); experiment: AlphaLISA competition vs SD1086
[49] = molecular target: HA of B/Florida/04/2006 (Yamagata) (influenza B virus); experiment: AlphaLISA competition vs SD1086
[50] = molecular target: HA of B/Brisbane/60/2008 (Victoria) (influenza B virus); experiment: AlphaLISA competition vs SD1084
[51] = molecular target: HA of B/Florida/04/2006 (Yamagata) (influenza B virus); experiment: AlphaLISA competition vs SD1084
[52] = molecular target: HA of B/Brisbane/60/2008 (Victoria) (influenza B virus); experiment: AlphaLISA competition vs SD1083
[53] = molecular target: HA of B/Florida/04/2006 (Yamagata) (influenza B virus); experiment: AlphaLISA competition vs SD1083
[54] = molecular target: HA of B/Brisbane/60/2008 (Victoria) (influenza B virus); experiment: BLI steady state
[55] = molecular target: HA of B/Brisbane/60/2008 (Victoria) (influenza B virus); experiment: cell-based or functional assay; remark: listed apart in the source
[56] = molecular target: HA of B/Florida/04/2006 (Yamagata) (influenza B virus); experiment: cell-based or functional assay; remark: listed apart in the source
[57] = molecular target: HA of B/Brisbane/60/2008 (Victoria) (influenza B virus); experiment: AlphaLISA competition vs CR8071
[58] = molecular target: HA of B/Florida/04/2006 (Yamagata) (influenza B virus); experiment: AlphaLISA competition vs CR8071
[59] = molecular target: HA of B/Brisbane/60/2008 (Victoria) (influenza B virus); experiment: AlphaLISA competition vs SD1087
[60] = molecular target: HA of B/Florida/04/2006 (Yamagata) (influenza B virus); experiment: AlphaLISA competition vs SD1087
[61] = molecular target: HA of B/Brisbane/60/2008 (Victoria) (influenza B virus); experiment: AlphaLISA competition vs SD1085
[62] = molecular target: HA of B/Florida/04/2006 (Yamagata) (influenza B virus); experiment: AlphaLISA competition vs SD1085
[63] = molecular target: hemagglutinin (HA) of influenza virus H5N1 A/Vietnam/1194/04 (influenza A virus); experiment: cell-based or functional assay
[64] = molecular target: hemagglutinin (HA) of influenza virus H1N1 A/California/07/09 (influenza A virus); experiment: cell-based or functional assay
[65] = molecular target: hemagglutinin (HA) of influenza virus H3N2 A/Wisconsin/67/05 (influenza A virus); experiment: cell-based or functional assay

B1: SD1016 (VHH)
VHH: EVQLVESGGGLVQAGGSLRLSCVASGMFFGIAAMGWYRQAPGKQRELVANITSDFSTNYADSVKDRFTISRDNAENTVYLQMNSLKPEDTAVYYCAADSLGTGWRHYYYWGQGTQVTVSS
notes: llama sdAb
pIC50 [1]: < 7
pIC50 [2]: < 7
pIC50 [3]: 9.9
pIC50 [4]: 9.6
pIC50 [5]: < 7
pIC50 [6]: < 7
pIC50 [7]: 10.3
pIC50 [8]: < 7
pIC50 [9]: < 7
Kd [10]: 6 nM
VNA titer [11]: 7.1 nM
VNA titer [12]: > 1000 nM
VNA titer [13]: > 1000 nM
VNA titer [14]: > 1000 nM
VNA titer [15]: > 1000 nM
VNA titer [16]: 27.8 nM
VNA titer [17]: 29.3 nM
VNA titer [18]: 9.1 nM
VNA titer [19]: > 1000 nM
VNA titer [20]: 15.7 nM

B2: SD1014 (VHH)
VHH: EVQLVESGGGLVQAGGSLTLSCAASGRTYAMAWFRQAPGKEREFVAHINALGTRTYYSDSVKGRFTISRDNAKNTEYLQMNSLNPEDTAVYYCAAGGQWRAAPVADAAQYDFWGQGTQVTVSS
notes: llama sdAb
pIC50 [21]: < 7
pIC50 [1]: < 7
pIC50 [2]: < 7
pIC50 [3]: < 7
pIC50 [4]: < 7
pIC50 [5]: 7.8
pIC50 [6]: < 7
pIC50 [8]: 7.2
pIC50 [9]: < 7
VNA titer [22]: > 1000 nM
VNA titer [23]: > 1000 nM
VNA titer [24]: > 1000 nM
VNA titer [25]: > 1000 nM
VNA titer [26]: > 1000 nM
VNA titer [27]: 137 nM

B3: SD1045 (VHH)
VHH: EVQLVESGGGLVQAGGSLRLSCAASGSSFSINVMGWYRQAPGKQREMVATITYGGSTNYVDSVKGRFTISRDNAKNTVYLQMNSLKPEDTAVYYCNSRLAQINYWGQGTQVTVSS
notes: llama sdAb
VNA titer [28]: 85.9 nM

B4: SD1038 (VHH)
VHH: EVQLVESGGGLVQPGGSLRLSCAVSISIFDIYAMDWYRQAPGKQRDLVATSFRDGSTNYADSVKGRFTISRDNAKNTLYLQMNSLKPEDTAVYLCHVSLYRDPLGVAGGMGVYWGKGALVTVSS
notes: llama sdAb
pIC50 [21]: < 7
pIC50 [1]: < 7
pIC50 [2]: < 7
pIC50 [3]: 10.1
pIC50 [4]: 9.3
pIC50 [5]: 8.6
pIC50 [6]: 8
pIC50 [8]: 7.8
pIC50 [9]: 7.2
pIC50 [29]: 8.3
Kd [10]: 4 nM
Kd [30]: 57 nM
Kd [31]: 14 nM
Kd [32]: 3 nM
Kd [33]: 42 nM
Kd [34]: 88 nM
VNA titer [35]: 10.1 nM
VNA titer [36]: > 1000 nM
VNA titer [37]: 19 nM
VNA titer [38]: 3.1 nM
VNA titer [39]: 9.7 nM
VNA titer [40]: 30.1 nM
VNA titer [41]: > 1000 nM
VNA titer [42]: 8.8 nM
pIC50 [43]: 7.9

B5: SD1083 (VHH)
VHH: EVQLVESGGGLVQPGGSLRLSCAATGFTLENKAIGWFRQTPGSEREGVLCISKSGSWTYYTDSMRGRFTISRDNAENTVYLQMDSLKPEDTAVYYCATTTAGGGLCWDGTTFSRLASSWGQGTQVTVSS
notes: llama sdAb
pIC50 [44]: < 7
pIC50 [21]: 9.4
pIC50 [45]: 9.3
VNA titer [46]: 178 nM
VNA titer [47]: 220 nM
pIC50 [48]: 9.1
pIC50 [49]: 9.2
pIC50 [50]: < 7
pIC50 [51]: < 7
pIC50 [52]: 8.9
pIC50 [53]: 9
pIC50 [29]: < 7
Kd [54]: 3 nM
hemagglutination inhibition titer [55]: > 50 µg/mL
hemagglutination inhibition titer [56]: > 50 µg/mL
pIC50 [57]: < 7
pIC50 [58]: < 7
pIC50 [59]: 9
pIC50 [60]: 9.1
pIC50 [61]: 8.7
pIC50 [62]: 8.9

B6: SD1038 (VHH)
VHH: EVQLVESGGGLVQPGGSLRLSCAVSISIFDIYAMDWYRQAPGKQRDLVATSFRDGSTNYADSVKGRFTISRDNAKNTLYLQMNSLKPEDTAVYLCHVSLYRDPLGVAGGMGVYWGKGALVTVSS
neutralization titer [63]: 30.1 nM
neutralization titer [64]: 17.5 nM
neutralization titer [65]: < 1000 nM

— patent US20190359693A1, “Binding molecules directed against influenza hemagglutinin and uses thereof” (Janssen / Centocor, published 2019)
